Results of unrelated studies side by side (data: NIAID ChemDB).

Common to all: enzyme or target tests; agent: HIV-1; protein: Integrase; read-out: inhibition

Conditions beyond the fields shown may differ between rows. An empty or dashed field is not shown. Inhibition is in % at the dose shown (toxicity tests: loss of growth or viability).

smiles,read by,strain or isolate,dose,result
CC1(C)CCC[C@]2(C)[C@@H]1CC[C@@]13C[C@@H](CC[C@H]12)[C@@](O)(CO)C3,ELISA / strand transfer,,25 µg/mL,13.4%
CCn1cc(C(=O)O)c(=O)c2cc(F)c(N3CCNC(C)C3)c(F)c21,AlphaScreen,,10 µM,2.23%
CC[C@H](C)/C=C(C)/C=C/C(=O)Cc1cc(O)c(C)c(O)c1C=O,,,100 µg/mL,0%
COC(=O)/C=C/c1ccccc1,3′ processing,,100 µM,0%
COc1ccc(C[C@H]2CCC(=O)[C@@H]2Cc2ccc(O)c(O)c2)cc1OC,strand transfer,,100 µM,38%
C[C@]1(Cn2ccnn2)[C@H](C(=O)O)N2C(=O)C[C@H]2S1(=O)=O,AlphaScreen,,10 µM,0%
O/N=C1\C(=C\c2ccc3c(c2)OCCO3)CCCC1C(NO)c1ccc2c(c1)OCCO2,strand transfer,RF,100 µg/mL,50.3%
C=C(C)[C@H]1CCC[C@]2(C)CC[C@@]3(C)[C@]4(C)CC[C@H]5C(C)(C)[C@@H](O)CC[C@]5(C)[C@H]4CC[C@]3(C)[C@@H]12,ELISA / strand transfer,,25 µg/mL,18.5%
Cc1cccc(N2CCN(S(=O)(=O)c3ccc4[nH]cc(C(=O)O)c(=O)c4c3)CC2)c1,strand transfer,,1000 µM,66.79%
Cc1cc(C)cc(Cn2cc(/C(O)=C/C(=O)C(=O)O)c3c(O)cccc32)c1,AlphaScreen,,100 µM,94%
O/N=C1\C(=C\c2ccc3c(c2)OCO3)CCCC1C(NO)c1ccc2c(c1)OCO2,3′ processing,RF,100 µg/mL,37.3%
O=C(O)c1c[nH]c2ccc(S(=O)(=O)N(CCCl)CCCl)cc2c1=O,strand transfer,,1000 µM,99.97%
COc1c(O)cc2c(c1O)[C@@H]1O[C@H](CO)[C@@H](O)[C@H](O)[C@H]1OC2=O,3′ processing,,100 µM,0%
O=C(O)c1c[nH]c2ccc(S(=O)(=O)N3CCC(Cc4ccccc4)CC3)cc2c1=O,strand transfer,,1000 µM,73.53%
NS(=O)(=O)c1ccc(Nc2c3ccccc3nc3c(C(=O)NC(CO)(CO)CO)cccc23)cc1,strand transfer,RF,100 µg/mL,40.5%
O=C(O)c1c[nH]c2ccc(S(=O)(=O)N3CCN(c4ccccc4)CC3)cc2c1=O,strand transfer,,1000 µM,78.8%
CCn1cc(C(=O)O)c(=O)c2cc(F)c(N3CCNCC3)nc21,AlphaScreen,,10 µM,0%
C/C=C1\C(O[C@@H]2O[C@H](CO)[C@@H](O)[C@H](O)[C@H]2O)OC=C(C(=O)OC)[C@H]1CC(=O)OCCc1ccc(O)c(O)c1,ELISA / strand transfer,,25 µg/mL,4.7%

A second listing of 2 rows from above:

smiles	read by	strain or isolate	dose	result
O/N=C1\C(=C\c2ccc3c(c2)OCCO3)CCCC1C(NO)c1ccc2c(c1)OCCO2	strand transfer	RF	100 µg/mL	50.3%
CCn1cc(C(=O)O)c(=O)c2cc(F)c(N3CCNCC3)nc21	AlphaScreen		10 µM	0%